Laboratory results: ChEMBL document CHEMBL1137564, “Substituted 2-pyrrolinone inhibitors of HIV-1 integrase” (Bioorg Med Chem Lett, 2007)

Target: Human immunodeficiency virus type 1 integrase (Human immunodeficiency virus 1) (UniProt Q7ZJM1)
Assay: Selectivity for HIV1 integrase strand transfer activity over 3'-end processing activity in presence of Mg2+

**Q.** For Cc1ccc(C(=O)C2=C(O)C(=O)N(c3ncc(S(=O)(=O)c4ccc([N+](=O)[O-])cc4)s3)C2c2cccc(Cl)c2)cc1 (stereo unspecified), which Ratio IC50 is on record?
**A.** The Ratio IC50 was greater than 10.
